The values below come from patent publication US20250205260A1, “ADJUNCTIVE TREATMENT OF MYCOBACTERIAL DISEASES” (UNIVERSITY OF SOUTHERN CALIFORNIA, priority 2022, published 2025).

In the series the test system is M. tuberculosis trehalose catalytic shift (metabolome). The series is described as follows: Metabolomics profiling / trehalose catalytic shift. The format is cell-based, Mycobacterium tuberculosis. Conditions: for M. tuberculosis metabolome after treatment compared with ΔtreS: ~410 metabolites, clustering, PCA, molecular phylogeny.

Consider `N[C@H]1[C@@H](O[C@H]2O[C@H](CO)[C@@H](O)[C@H](O)[C@H]2O)O[C@H](CO)[C@@H](O)[C@@H]1O` [2-TreNH2, (2R,3R,4S,5S,6R)-2-(((2R,3R,4R,5S,6R)-3-amino-4,5-dihydroxy-6-(hydroxymethyl)tetrahydro-2H-pyran-2-yl)oxy)-6-(hydroxymethyl)tetrahydro-2H-pyran-3,4,5-triol], for which the “M. tuberculosis metabolome after treatment compared with ΔtreS” value is “relatively similar to ΔtreS”.
Turning to `[N-]=[N+]=NC[C@H]1O[C@H](O[C@H]2O[C@H](CO)[C@@H](O)[C@H](O)[C@H]2O)[C@H](O)[C@@H](O)[C@@H]1O` [6-TreAz, (2R,3S,4S,5R,6R)-2-(azidomethyl)-6-(((2R,3R,4S,5S,6R)-3,4,5-trihydroxy-6-(hydroxymethyl)tetrahydro-2H-pyran-2-yl)oxy)tetrahydro-2H-pyran-3,4,5-triol], the “M. tuberculosis metabolome after INH or BDQ with co-treatment, compared with ΔtreS” value (co-treatment with 6-treAz) is reported as “became similar”.
On to `NC[C@H]1O[C@H](O[C@H]2O[C@H](CO)[C@@H](O)[C@H](O)[C@H]2O)[C@H](O)[C@@H](O)[C@@H]1O` [6-TreNH2, (2R,3S,4S,5R,6R)-2-(aminomethyl)-6-(((2R,3R,4S,5S,6R)-3,4,5-trihydroxy-6-(hydroxymethyl)tetrahydro-2H-pyran-2-yl)oxy)tetrahydro-2H-pyran-3,4,5-triol], for which the “M. tuberculosis metabolome after treatment compared with ΔtreS” value is “metabolically different from ΔtreS”.
The same measure, in the same setting: the result for `N[C@H]1[C@H](O)[C@@H](O)[C@@H](O[C@H]2O[C@H](CO)[C@@H](O)[C@H](O)[C@H]2O)O[C@@H]1CO` [4-TreNH2, (2R,3R,4S,5S,6R)-2-(((2R,3R,4S,5S,6S)-5-amino-3,4-dihydroxy-6-(hydroxymethyl)tetrahydro-2H-pyran-2-yl)oxy)-6-(hydroxymethyl)tetrahydro-2H-pyran-3,4,5-triol] reads “relatively similar to ΔtreS”.
